Data reported in PubChem BioAssay AID624414 (National Center for Advancing Translational Sciences (NCATS), 2012).
Only a part is listed here, and it is no random draw. Activity calls are given as the source filed them. No stated cut-off is given here; in the data, active means activation above about 50%; inconclusive means mostly about 30% to 49%; inactive means weaker than that.

Protein sequences, listed by entry. Tags and fused reporters are not part of them.
UniProt Q9GZU1, whole entry: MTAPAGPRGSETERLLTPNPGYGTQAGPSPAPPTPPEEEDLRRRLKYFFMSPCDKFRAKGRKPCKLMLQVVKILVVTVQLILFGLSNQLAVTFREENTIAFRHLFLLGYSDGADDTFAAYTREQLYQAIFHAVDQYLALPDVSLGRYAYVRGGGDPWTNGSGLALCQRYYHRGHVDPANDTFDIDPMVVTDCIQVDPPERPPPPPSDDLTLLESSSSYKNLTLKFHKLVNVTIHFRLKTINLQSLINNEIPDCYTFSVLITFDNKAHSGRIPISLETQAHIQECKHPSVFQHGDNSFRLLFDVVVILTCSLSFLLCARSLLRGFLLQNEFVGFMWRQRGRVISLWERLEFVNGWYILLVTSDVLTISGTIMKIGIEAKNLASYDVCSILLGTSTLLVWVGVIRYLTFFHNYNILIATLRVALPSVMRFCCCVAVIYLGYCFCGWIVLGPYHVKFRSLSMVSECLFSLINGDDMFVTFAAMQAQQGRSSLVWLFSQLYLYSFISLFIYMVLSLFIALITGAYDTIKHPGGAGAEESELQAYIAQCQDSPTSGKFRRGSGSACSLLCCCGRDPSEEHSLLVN

Molecular target: Mucolipin-1 (Homo sapiens) (UniProt Q9GZU1)
Test: qHTS for Agonists of the Human Mucolipin Transient Receptor Potential 1 (TRPML1); further: 0% is about no effect
Settings: TRPML1-expressing cells, Ca2+ dye fluorescence, FDSS; stronger effect = higher value
How it was run: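 Calcium fluorescence on an FDSS kinetic reader gave the read-out. Tet-induced TRPML1-DL cells were plated overnight, dye-loaded (Ca8 with quencher, 45-90 min, room temperature, dark), then read 110 s after compound addition, and again 110 s after 4uM final 54-4 (EC80).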

SMILES	activation
O=C(NC(Sc1ccncn1)C(Cl)(Cl)Cl)c1ccccc1 (centres undefined)	inactive: 0.57%
Cc1c(NP(C)(=O)Oc2ccc(C(C)C)cc2)c(=O)n(-c2ccccc2)n1C (centres undefined)	inactive: -0.545%
Nc1cc(N)c2nonc2c1[N+](=O)[O-]	inactive: -0.428%
CC(C)CC(=O)NC(Sc1ccc(Cl)cc1)C(Cl)(Cl)Cl (centres undefined)	inactive: 1.68%
O=[N+]([O-])c1cc([N+](=O)[O-])c(Nc2ccccn2)c([N+](=O)[O-])c1	inactive: 0.0379%
COc1ccc(OP(C)(=O)Nc2ccccc2Br)cc1 (centres undefined)	inactive: 0.0351%
Cc1cc(SC(NC(=O)c2ccc(F)cc2)C(Cl)(Cl)Cl)ncn1 (centres undefined)	inactive: -0.326%
CCOP(=O)(Nc1ccccc1)OCC	inactive: 0.67%
COc1ccccc1OP(C)(=O)Nc1ccc(C)c(C)c1 (centres undefined)	inactive: -0.275%
Cc1ccc(NP(=O)(Oc2ccccc2F)Oc2ccccc2F)nc1	inactive: 0.337%
CN(C(=O)Cc1ccc(Cl)c(Cl)c1)[C@H]1CCCC[C@@H]1N1CCCC1	inactive: -1.04%
O=P(Nc1nc2ccc(Cl)cc2s1)(c1ccccc1)c1ccccc1	inactive: 0.778%
Cc1cc(C)cc(OP(C)(=O)Nc2cccc(C(F)(F)F)c2)c1 (centres undefined)	inactive: 3.67%
CN(C)P(=O)(N(C)C)n1c(Nc2ccccc2)nnc1-c1ccccc1	inactive: -0.595%
CC(=O)Nc1ccc([As](=O)(O)O)cc1	inactive: -0.539%
O=C(O)c1ccccc1[As](=O)(O)O	inactive: -1.02%
CCCC1OP(N)(=O)OCC1CC (centres undefined)	inactive: 0.506%
Nc1cccc2ccc([As](=O)(O)O)cc12	inactive: -0.674%
CCCCCCCCCCCCCCCC1C[N+](C)(C)CCOP(C)(=O)O1 (centres undefined)	inactive: 15.8%
CP(=O)(Nc1ccc(Cl)cc1Cl)Oc1ccccc1 (centres undefined)	inactive: -0.331%
CP(=O)(OCCOc1ccccc1)OCCOc1ccccc1	inactive: 0.988%

SMILES	activation
CCN(N=Nc1nonc1N)c1nonc1N	inactive: -0.0684%
Nc1c(O)cc([N+](=O)[O-])cc1[N+](=O)[O-]	inactive: -1.12%
COc1ccc(OP(C)(=O)Nc2ccc(SC(F)(F)F)cc2)cc1 (centres undefined)	inactive: 0.0975%
O=P1(N(CCCl)CCCl)OCCC2CCCCN21 (centres undefined)	inactive: -0.428%
CCOC(=O)c1ccc(NP(C)(=O)Oc2ccc(F)cc2)cc1 (centres undefined)	inactive: -0.38%
c1ccc(-c2nn[nH]n2)c(-c2nn[nH]n2)c1	inactive: 0.774%
Cc1ccc(NP(=O)(Oc2cccc(C)c2)Oc2cccc(C)c2)nc1	inactive: 1.13%
O=[N+]([O-])c1cc([N+](=O)[O-])c2nc[nH]c2c1	inactive: -0.236%
CCNC(=S)/N=C(\N)N[N+](=O)[O-]	inactive: 1.2%
O=C(NC1CCS(=O)(=O)C1)NP(=S)(Oc1ccccc1)Oc1ccccc1 (centres undefined)	inactive: -0.693%
CC(NC(=O)COC(=O)C(O)(c1ccccc1)c1ccccc1)c1ccccc1 (centres undefined)	inactive: 1.05%
Cc1ccccc1OP(=O)(Nc1ccccn1)Oc1ccccc1C	inactive: 2.46%
O=c1c2cc([N+](=O)[O-])ccc2[nH]c2c([N+](=O)[O-])cc([N+](=O)[O-])cc12	inactive: 1.85%
CCCCCOc1ccc(NP(C)(=O)Oc2ccc(Cl)cc2Cl)cc1 (centres undefined)	inactive: 2.23%
CN(C)C(=O)Oc1noc2ccccc12	inactive: 0.607%
CP(=O)(Nc1ccccc1)Oc1ccc(F)cc1 (centres undefined)	inactive: -0.295%
O=C(OC1CN2CCC1CC2)c1ccccc1 (centres undefined)	inactive: -0.368%
CCN(CC)CCCOC(=O)C(O)(c1ccccc1)C1CCCCC1 (centres undefined)	inactive: -0.419%
CCC(=O)N1C2C3N(C(=O)CC)C1C1N(C(=O)CC)C(C(N1C(=O)CC)N3C(=O)CC)N2C(=O)CC	inactive: 1.23%
Cc1c([N+](=O)[O-])cc([N+](=O)[O-])c(Br)c1[N+](=O)[O-]	inactive: -0.709%
COC(=O)c1cc2c(s1)N=C(c1ccccc1)N(C)P2(=O)N1CCOCC1 (centres undefined)	inactive: -0.123%

SMILES	activation
CC(=O)NC(SC(=S)N(CC(C)C)CC(C)C)C(Cl)(Cl)Cl (centres undefined)	inactive: 0.54%
Cc1ccc(OP(=O)(Nc2ccccn2)Oc2ccc(C)cc2)cc1	inactive: -0.255%
CC(C)(C)C(=O)NC(Sc1ccccc1)C(Cl)(Cl)Cl (centres undefined)	inactive: 1.33%
CC(C)c1ccc(OP(C)(=O)Nc2ccc(SC(F)(F)F)cc2)cc1 (centres undefined)	inactive: 2.46%
CCc1cc(O)c([N+](=O)[O-])c(C)c1[N+](=O)[O-]	inactive: 1.01%
CP(=O)(Nc1ccccc1F)Oc1ccccc1 (centres undefined)	inactive: -0.291%
O=P1(Nc2nc3ccc(Cl)cc3s2)COc2ccccc2O1 (centres undefined)	inactive: -0.177%
CCOc1ccc(C2=NCC(CBr)S2)cc1 (centres undefined)	inactive: 0.408%
CC(=O)Nc1ccc([As](=O)(O)O)c(O)c1	inactive: 0.14%
CC(=O)Nc1ccc(Oc2c([N+](=O)[O-])cc([N+](=O)[O-])cc2[N+](=O)[O-])cc1	inactive: -0.157%
Cc1ccccc1CN(C)C(=O)COC(=O)C(O)(c1ccccc1)c1ccccc1	inactive: 1.68%
O=C(OCCN1CCN(CCOCc2ccccc2)CC1)C(O)(c1ccccc1)c1ccccc1	inactive: 0.775%
C[C@H]1OP(=O)(Oc2ccccc2)C[C@@H]2O[C@@H]21 (some centres undefined)	inactive: -0.242%
C[C@@H]1C=CCP(=O)(Oc2ccccc2)O1 (some centres undefined)	inactive: -0.448%
CC(=O)c1ccc(N2CC2c2ccncc2)cc1 (centres undefined)	inactive: 0.532%
N#C/C(=C\c1ccc(N(CCBr)CCBr)cc1)C(N)=O	inactive: -0.323%
COC(=O)C1(C)COP(=O)(NCc2ccccc2)OC1 (centres undefined)	inactive: 0.184%
c1nnnn1CCn1cnnn1	inactive: 0.314%
CCOP(C)(=S)SCC(=O)NC(C)(CC)C(=O)O (centres undefined)	inactive: -0.524%
CC(C)C(=O)NC(Sc1ccccc1)C(Cl)(Cl)Cl (centres undefined)	inactive: 0.103%
O=P(Nc1nccs1)(c1ccccc1)c1ccccc1	inactive: -1.01%

SMILES	activation
CP(=O)(Nc1ccc(SC(F)(F)F)cc1)Oc1ccc(F)cc1 (centres undefined)	inactive: 0.659%
O=[N+]([O-])c1cc([N+](=O)[O-])c(C(F)(F)F)c([N+](=O)[O-])c1O	inactive: -0.0965%
COc1cccc([N+](=O)[O-])c1[N+](=O)[O-]	inactive: -0.501%
Cc1ccccc1NP(C)(=O)Nc1ccccc1C	inactive: -0.295%
CP(=O)(Nc1ccc2c(c1)OCCO2)Oc1ccccc1 (centres undefined)	inactive: -0.0689%
COc1ccc(NP(C)(=O)Oc2ccccc2OC)cc1 (centres undefined)	inactive: 0.548%
CN(C)CCOC(=O)C(O)(c1ccccc1)C1CCCCC1 (centres undefined)	inactive: 0.734%
O=P(Nc1nc2ccccc2s1)(c1ccccc1)c1ccccc1	inactive: 1.2%
C[C@H]1OP(=O)(Oc2ccccc2)[C@H](O)[C@H](O)[C@H]1N=[N+]=[N-] (some centres undefined)	inactive: -0.376%
O=P(Nc1ccccn1)(c1ccc(Br)cc1)c1ccc(Br)cc1	inactive: -0.17%
CN(C)C1(CNC(=O)c2ccc(Cl)c(S(N)(=O)=O)c2)CCCCC1	inactive: -0.163%
COc1ccc(OP(C)(=O)Nc2cccc(Br)c2)cc1 (centres undefined)	inactive: 0.442%
COc1ccc(N)c([N+](=O)[O-])c1[N+](=O)[O-]	inactive: -0.893%
O=C(OC1CN2CCC1CC2)c1cccc(Cl)c1 (centres undefined)	inactive: -0.629%
Cc1c(C(c2ccc3c(c2)OCO3)c2c(C)n(C)n(-c3ccccc3)c2=O)c(=O)n(-c2ccccc2)n1C.O=[N+]([O-])c1cc([N+](=O)[O-])c(O)c([N+](=O)[O-])c1	inactive: 0.147%
C(Cc1nn[nH]n1)Cc1nn[nH]n1	inactive: -0.26%
Nc1ccc([As](=O)(O)c2ccc([N+](=O)[O-])cc2)cc1	inactive: 0.493%
O=[As](O)(c1ccccc1)c1ccc(O)cc1	inactive: 2.19%
Cc1cc(-c2cccc3ccccc23)c(C)cn1.O=[N+]([O-])c1cc([N+](=O)[O-])c(O)c([N+](=O)[O-])c1	inactive: 2.43%
CC(=O)NC(SC(=S)N(C)C)C(Cl)(Cl)Cl (centres undefined)	inactive: 0.884%
O=[N+]([O-])c1ccc(OP2(=O)COCCO2)cc1 (centres undefined)	inactive: 0.318%
